Tested on: EpiIntestinal™ microtissues
Experiment: RICyt assay: micronuclei (MN) cytome scoring in EpiIntestinal microtissues after 10-day repeated apical exposure

Substance: Aflatoxin B1
- Conclusion (RICyt result compared with expected in vitro/in vivo results): Correct

From publication PMC13289030, “Qualification of the human Reconstructed Intestine Micronuclei Cytome assay for site-of-contact genotoxic hazard identification” (NAM journal, 2025)
